Test results reported in patent US10975059B2, “Small molecule BRD4 modulators for HIV epigenetic regulation” (The Board of Regents of The University of Texas System, priority 2017, dated 2021).

Experiments:
Format in all cases: cell-based
[1] = system: BRD4, CDK9, Cyclin T1/T2, AFF4; assay: Western blot of transcription elongation proteins in J-Lat cells; conditions: PMA + compound, 24 hours
Tat and NF-κB protein = assay: Western blot of Tat and NF-κB in J-Lat cells; conditions: PMA + compound, 24 hours
human PBMCs / T cells = assay: T-cell phenotypes, activation markers and gene expression in PBMCs; conditions: 8 μM

| SMILES | expression of BRD4, CDK9, Cyclin T1/T2, AFF4 [1] | Tat protein expression (Tat and NF-κB protein) | expression of HIV entry receptors (CD4 and CCR5) (human PBMCs / T cells; 3 days) | expression of 17 genes associated with T-cell phenotypes and functions (human PBMCs / T cells; PHA-activated and resting PBMCs) |
| --- | --- | --- | --- | --- |
| O=C(Nc1ccc(C(F)(F)F)cc1)Nc1ccc(S(=O)(=O)N2CCCC2C(=O)Nc2ccccc2)cc1 (stereo in doubt) [ZL0580, (R)—N-Phenyl-1-((4-(3-(4-(trifluoromethyl)phenyl)ureido)phenyl)sulfonyl)pyrrolidine-2-carboxamide] | Neither ZL0580 (PMA+ZL0580) nor JQ1 (PMA+JQ1) treatment altered expression of these proteins | did not significantly (or slightly) reduce Tat protein | did not significantly alter the expression of HIV entry receptors (CD4 and CCR5) on CD4 T cells | did not significantly alter the expression of these genes in PBMCs |
| Cc1sc2c(c1C)C(c1ccc(Cl)cc1)=N[C@@H](CC(=O)OC(C)(C)C)c1nnc(C)n1-2 [JQ1, reference compound] | Neither ZL0580 (PMA+ZL0580) nor JQ1 (PMA+JQ1) treatment altered expression of these proteins |  |  |  |
